Measured values from several laboratories, pooled; numbers as filed in NIAID ChemDB.

Common to all: growth or infection tests; species: HIV-1; read by: β-galactosidase; measure: EC50

Blank or dashed fields: not listed here. Rows are shuffled and stem from different studies. Two numbers with a dash give a range or band. ECn is the concentration giving n% inhibition of infection, replication or growth.

{"structure": "Cc1c(OCC2CCC2)c2cc(F)ccc2[nH]c1=O", "changes": "RT-V108I Y181C", "strain": "NNRTI-resistant (RT V108I Y181C)", "cells": "HeLa + HeLa-MAGI", "result": ">2 µM"}
{"structure": "N=C1Sc2ccccc2C2=NCCCN12", "strain": "98IN022", "cells": "PBMC", "result": "0.4 µM"}
{"structure": "Nc1ccn([C@H]2CC[C@@H](CO)O2)c(=O)n1", "changes": "D36G Q41R N43K A96D N126K H132Y V182I P203S L204I S241F H258Q A312T", "strain": "NL4-3", "result": "0.536 µM"}
{"structure": "O=C1NC(=NCCc2ccccc2)S/C1=C\\c1ccc(-c2ccc(C(=O)O)c(O)c2)o1", "strain": "NL4-3", "cells": "TZM-bl", "result": "0.8 µM"}
{"structure": "Cc1cc(S(N)(=O)=O)ccc1NC(=O)COc1ccc(Cl)cc1C(=O)c1cc(F)cc(F)c1", "changes": "RT-V106A", "strain": "HXB2", "cells": "HeLa + HELA CD4+", "result": "0.011–0.1 µM"}
{"structure": "Cc1cc(C#N)cc(C(=O)c2ccccc2OCC(=O)Nc2ccc(S(N)(=O)=O)cc2C)c1", "changes": "RT-K103N P225H", "cells": "HeLa MAGI + HeLa", "result": "<0.005 µM"}
{"structure": "O=C1NC(=Nc2ccc(F)c(Cl)c2)S/C1=C\\c1ccc(-c2ccc(C(=O)O)c(O)c2)o1", "strain": "NL4-3", "cells": "TZM-bl", "result": "1 µM"}
{"structure": "Cc1cc2cn[nH]c2cc1NC(=O)COc1ccc(Cl)cc1C(=O)c1cccc(C#N)c1", "changes": "RT-Y188C", "strain": "HXB2", "cells": "HeLa + HELA CD4+", "result": "<0.01 µM"}
{"structure": "O=C1NC(=NCCc2ccc(F)cc2)S/C1=C\\c1ccc(-c2ccc(C(=O)O)c(O)c2)o1", "conditions": "pseudotyped", "cells": "TZM-bl", "result": "3.9 µM"}
{"structure": "Cc1cc(C#N)cc(C(=O)c2cc(Cl)ccc2OCC(=O)Nc2cnc(S(N)(=O)=O)cc2C)c1", "changes": "RT-K103N V108I", "strain": "HXB2", "cells": "HeLa + HELA CD4+", "result": "<0.01 µM"}
{"structure": "CCc1c(OCC2CCC2)c2cc(F)ccc2[nH]c1=O", "changes": "RT-K103N G190A", "strain": "NNRTI-resistant (RT K103N G190A)", "cells": "HeLa + HeLa-MAGI", "result": "1.1 µM"}
{"structure": "Cc1cc(C)cc(C(=O)c2cc(Cl)ccc2OCC(=O)Nc2ccc(S(N)(=O)=O)cc2C)c1", "changes": "RT-K103N G190A", "strain": "HXB2 (RT-K103N G190A) Recombinant", "cells": "HeLa + HELA CD4+", "result": "<0.01 µM"}
{"structure": "O=C1NC(=NCc2ccc(Cl)c(F)c2)S/C1=C\\c1ccc(-c2ccc(C(=O)O)c(O)c2)o1", "strain": "NL4-3", "cells": "TZM-bl", "result": "2.3 µM"}
{"structure": "Cc1cc(OCCCS(N)(=O)=O)ccc1NC(=O)COc1ccc(Cl)cc1C(=O)c1cc(F)cc(C(F)(F)F)c1", "changes": "RT-K103N Y181C", "strain": "HXB2 (RT-K103N Y181C) Recombinant", "cells": "HeLa + HELA CD4+", "result": "<0.01 µM"}
{"structure": "O=C1NC(=NCc2cccc(F)c2)S/C1=C\\c1ccc(-c2ccc(C(=O)O)c(O)c2)o1", "strain": "NL4-3", "cells": "TZM-bl", "result": "3 µM"}

The first 2 rows once more:

structure | changes | strain | conditions | cells | result
Cc1c(OCC2CCC2)c2cc(F)ccc2[nH]c1=O | RT-V108I Y181C | NNRTI-resistant (RT V108I Y181C) | - | HeLa + HeLa-MAGI | >2 µM
N=C1Sc2ccccc2C2=NCCCN12 | - | 98IN022 | - | PBMC | 0.4 µM